{
  "source": "patent US20150197559A1",
  "about": "(University of California, published 2015)",
  "binders": {"B1": {"name": "4A1 scFv (scFv)", "scFv": "QVQLVQSGGGLAQPGGSLRLSCAASGFTFGSYSMNWVRQAPGKGLEWVSSITGNSGLIYYADSVKGRFTVSRDNAKNSLFLHMHSLRADDTAVYYCARDPGWIYSDTSAAGWFDPWGHGTLVTVSSGGGGSGGGGSGGGGS[gap - about 100 residues]"}, "B2": {"name": "ING1 scFv (scFv)", "scFv": "QVQLQQSGGGLVQPGGSLRLSCAASGFTFSNYAMTWVRQAPGKGLEWVSSISVGGSDTYYADSVKGRFTVSRDNSKNTLLLQMNSLRAEDTAVYYCAKVRTKYCSSLSCFAGFDSWGQGTRVTVSSGGGGSGGGGSGGGGS[gap - about 100 residues]TFGGGTKVDIK"}},
  "key": {"BoNT/A1 (Hall hyper) [1]": {"target": "T1, BoNT/A1 (Hall hyper) (Clostridium botulinum)", "assay": "flow cytometry, yeast-displayed scFv, soluble toxin"}, "BoNT/A1 (Hall hyper) [2]": {"target": "T1, BoNT/A1 (Hall hyper)", "assay": "flow cytometry, yeast-displayed scFv, soluble toxin", "remark": "listed apart in the source"}, "BoNT/A1 (Hall hyper) [3]": {"target": "T1, BoNT/A1 (Hall hyper)", "assay": "flow cytometry, yeast-displayed parental scFv"}, "BoNT/A1 (Hall hyper) [4]": {"target": "T1, BoNT/A1 (Hall hyper)", "assay": "flow cytometry, yeast-displayed scFv, soluble toxin", "remark": "listed apart in the source"}},
  "data": [
    {"binder": "B1", "values": [
      {"measurement": "Kd", "setting": "BoNT/A1 (Hall hyper) [1]", "result": 7.4, "unit": "nM"}
    ]},
    {"binder": "B2", "values": [
      {"measurement": "Kd", "setting": "BoNT/A1 (Hall hyper) [1]", "result": 5.28, "unit": "nM"},
      {"measurement": "Kd", "setting": "BoNT/A1 (Hall hyper) [2]", "result": 5.28, "unit": "nM"},
      {"measurement": "Kd", "setting": "BoNT/A1 (Hall hyper) [3]", "result": 5.28, "unit": "nM"},
      {"measurement": "Kd", "setting": "BoNT/A1 (Hall hyper) [4]", "result": 5.28, "unit": "nM"}
    ]}
  ]
}
